What was measured:
[1] = tested on: Candida albicans YEM15 (over-expressing the CDR1 and CDR2 pumps); assay: Checkerboard / broth microdilution assay, potentiation of fluconazole vs. C. albicans; conditions: for MIC: Candida albicans, 48 h; for MPC8 = concentration of efflux pump inhibitor necessary to reduce the fluconazole MIC 8-fold: in combination with fluconazole, strain YEM15
[2] = tested on: C. glabrata YEM19 (over-expressing the CgCDR1 and CgCDR2 pumps); assay: Checkerboard / broth microdilution assay, potentiation of fluconazole vs. C. glabrata; conditions: for MIC: Nakaseomyces glabratus, 48 h; for MPC8: in combination with fluconazole, strain YEM19

SMILES	MIC [1] [µg/mL]	MPC8 = concentration of efflux pump inhibitor necessary to reduce the fluconazole MIC 8-fold [1] [µg/mL]	MIC [2] [µg/mL]	MPC8 [2] [µg/mL]
COc1ccc(N(C(=O)Nc2ccc(F)cc2)C(C)c2nc3ccccc3c(=O)n2N2CCN(C(=O)[C@H]3CCCN3)CC2)c(OC)n1 (some centres unmarked) [Compound 198]	> 32	32	> 32	2
COc1ccc(N(C(=O)Nc2ccc(F)cc2)C(C)c2nc3ccccc3c(=O)n2N2CCN(C(=O)N3CCN(C(=O)OC(C)(C)C)CC3)CC2)c(OC)c1 (centres unmarked) [Compound 199]	> 32	16	> 32	2
COc1ccc(N(C(=O)Nc2ccc(F)cn2)C(C)c2nc3ccccc3c(=O)n2N2CCN(C(=O)CN3CCOCC3)CC2)c(OC)c1 (centres unmarked) [Compound 201]	> 32	4	> 32	0.5
COc1ccc(N(C(=O)Nc2ccc(F)cc2)C(C)c2nc3ccccc3c(=O)n2N2CCN(C(=O)N3CCOCC3)CC2)c(OC)n1 (centres unmarked) [Compound 202]	> 32	0.06	> 32	1
CC(c1nc2ccccc2c(=O)n1N1CCN(CC(=O)N2CCOCC2)CC1)N(C(=O)Nc1ccc(F)cc1)c1ccc(OCC2CC2)cc1OCC1CC1 (centres unmarked) [Compound 203]	> 32	4	> 32	2
CC(c1nc2ccccc2c(=O)n1N1CCN(C(=O)C2CC2)CC1)N(C(=O)Nc1ccc(F)cc1)c1cccc(-n2nccn2)c1 (centres unmarked) [Compound 205]	> 32	0.25	> 32	2
COc1ccc(C(C)=O)cc1N(C(=O)Nc1ccc(F)cc1)C(C)c1nc2ccccc2c(=O)n1N1CCN(C(=O)C2CC2)CC1 (centres unmarked) [Compound 207]	> 32	16	> 32	8
COc1ccc(N(C(=O)Nc2ccc(F)cc2)C(C)c2nc3ccccc3c(=O)n2N2CCN(CC3CC3)CC2)c(OC)c1 (centres unmarked) [Compound 209]	> 32	0.25	> 32	1
COc1ccc(N(C(=O)Nc2ccc(F)cc2)C(C)c2nc3ccccc3c(=O)n2N2CCN(C(=O)N3CCC(N)C3)CC2)c(OC)c1 (centres unmarked) [Compound 210]	> 32	8	> 32	4
COc1ccc(N(C(=O)Nc2ccc(F)cc2)C(C)c2nc3ccccc3c(=O)n2N2CCN(C(=O)N3CCC(N)CC3)CC2)c(OC)c1 (centres unmarked) [Compound 211]	> 32	32	> 32	8
COc1ccc(N(C(=O)Nc2ccc(F)cc2)C(C)c2nc3ccccc3c(=O)n2N2CCN(C(=O)[C@@H]3CCCN3C(C)=O)CC2)c(OC)c1 (some centres unmarked) [Compound 212]	> 32	16	> 32	2

— patent US20030220338A1, “Fungal efflux pump inhibitors” (priority 2001, published 2003)
